Results of unrelated studies side by side (data: NIAID ChemDB).

Common to all: tests in culture; organism: Mycobacterium tuberculosis

Inhibition is in % at the dose shown (toxicity tests: loss of growth or viability). Conditions beyond the fields shown may differ between rows. Fold resistance: result on the changed form divided by that on wild type. MIC bound: limit read from a one-dose screen. ECn is the concentration giving n% inhibition of infection, replication or growth. a–b is a range or a potency band. Blank or dashed fields: not listed here. A number after MIC or MFC names an inhibition level or a share of isolates.

structure	read-out	cells	dose	conditions	changes	strain	read by	value
Cc1csc([C@](C)(O)c2nnc(Nc3ccn(Cc4c(F)cccc4F)n3)s2)n1	MIC	-	-	-	-	M103L	-	>25 µg/mL
CCCCCCCCCN1C(=O)CCCC1=O	MIC	-	-	-	-	H37Rv	-	≤20 µg/mL
CC[C@@H](CO)NCCN[C@@H](CC)CO	MIC	-	-	-	Ofloxacin-resistant	12119	resazurin	1.2 µM
COC(=O)c1cnccn1	MIC	-	-	-	-	H37Rv	BACTEC	≥12.5 µg/mL
C[C@H]1COc2c(N3CCN(C)CC3)c(F)cc3c(=O)c(C(=O)O)cn1c23	MIC50	-	-	-	-	MDR	-	2 µg/mL
CCOc1ccc2nc(NC(=O)C3C4CCC(O4)C3C(=O)O)sc2c1	MIC bound	-	-	-	-	H37Rv	BACTEC	>12.5 µg/mL
NNC(=O)c1ccncc1	MIC	-	-	-	-	H37Rv	-	0.025 µg/mL
C=C1C(=O)OC2C1CC(OC(C)=O)/C(C)=C\CCC1(C)OC21	inhibition	-	12.5 µg/mL	-	-	H37Rv	BACTEC	-23%
CC1COc2c(N3CCN(C)CC3)c(F)cc3c(=O)c(C(=O)O)cn1c23	MIC	-	-	-	Ofloxacin-resistant	12119	resazurin	>11 µM
O=S(=O)(Nc1nc2ccccc2n1S(=O)(=O)c1ccccc1)c1ccccc1	MIC bound	-	-	-	-	H37Rv	resazurin	>6.25 µg/mL
NC[C@H]1O[C@H](O[C@H]2[C@H](O)[C@@H](O[C@H]3O[C@H](CO)[C@@H](O)[C@H](N)[C@H]3O)[C@H](N)C[C@@H]2N)[C@H](N)C[C@@H]1O	Mean MIC	-	-	-	-	H37Rv	-	10 µg/mL
CN1CCCCC1CCN1c2ccccc2Sc2ccc(S(C)=O)cc21	MIC	-	-	-	-	22 isolates	-	2 µg/mL
CC(C)=CCC1C(=O)C(CC=C(C)C)(CC=C(C)C)C(O)C(C(=O)C(C)C)C1O	MIC	-	-	-	-	Isolate H	-	40.6 µg/mL
CCCCCCCCN1C(=O)CC(SCC(N)C(=O)O)C1=O	MIC	-	-	-	-	H37Ra	-	≤20 µg/mL
Cc1cc(C)c2c(=O)n(CC(O)CN3CCN(CCO)CC3)sc2n1	MIC	-	-	-	-	H37Rv	-	>12.5 µg/mL
CC1COc2c(N3CCN(C)CC3)c(F)cc3c(=O)c(C(=O)O)cn1c23	MIC90	-	-	-	-	100 isolates	-	4 µg/mL
C/C=C/c1cc2c(c(=O)o1)C(=O)[C@@H](O)[C@H](C)O2	MIC bound	-	-	-	-	H37Rv	BACTEC	>12.8 µg/mL
NC(=O)c1cnccn1	EC50	-	-	7 d	-	TB186	-	<800 µg/mL
O=c1c2c3c(sc2nc2n1NC=NN2)CCCC3	inhibition	-	6.25 µg/mL	-	-	H37Rv	resazurin	24%
CC[C@H]1OC(=O)[C@H](C)[C@@H](O[C@H]2C[C@@](C)(OC)[C@@H](O)[C@H](C)O2)[C@H](C)[C@@H](O[C@@H]2O[C@H](C)C[C@H](N(C)C)[C@H]2O)[C@](C)(O)C[C@@H](C)C(=O)[C@H](C)[C@@H](O)[C@]1(C)O	MBC90	-	-	-	-	Drug-resistant	-	>8 µg/mL
C=C1c2c(Cl)ccc(O)c2C(O)=C2C(=O)[C@]3(O)C(O)=C(C(N)=O)C(=O)C(N(C)C)[C@@H]3[C@@H](O)[C@@H]12	MIC bound	-	-	-	-	H37Rv	BACTEC	≤12.5 µg/mL
Cc1onc(-c2ccccc2Cl)c1C(=O)N[C@@H]1C(=O)N2[C@@H]1SC(C)(C)[C@@H]2C(=O)O	Mean MIC	-	-	-	-	H37Ra	-	80 µg/mL
CCCCCCCCCN1C(=O)CC(SCCN)C1=O	MIC	-	-	-	-	Clinical isolate (isoniazid-resistant)	-	≤20 µg/mL
CCCCCCCCCCOC(=O)c1cc[n+](C)cc1	inhibition	-	6.25 µg/mL	-	-	H37Rv	resazurin	72%
N[C@@H]1CONC1=O	Mean MIC	-	-	-	-	H37Rv	-	15.6 µg/mL
C=CCN1C(=O)c2c(C)cc(C)nc2S1(=O)=O	MIC	-	-	-	-	H37Rv	-	>12.5 µg/mL
Cc1ccc(Nc2nc3c(s2)C(=O)c2ccccc2C3=O)cc1	inhibition	-	12.5 µg/mL	-	-	H37Rv	BACTEC	100%
CCCCCCCCNC1CC(=O)NC1=O	MIC	-	-	-	-	Clinical isolate (isoniazid-resistant)	-	≤20 µg/mL
O=c1[nH]c2c(Cl)c(Cl)ccc2c(O)c1N=Nc1ccc([N+](=O)[O-])cc1	MIC	-	-	-	-	H37Rv	resazurin	<6.25 µg/mL
CO[C@H]1/C=C/O[C@@]2(C)Oc3c(C)c(O)c4c(O)c(cc(OCC(=O)N(C)C5CCCC5)c4c3C2=O)NC(=O)/C(C)=C\C=C\[C@H](C)[C@H](O)[C@@H](C)[C@@H](O)[C@@H](C)[C@H](OC(C)=O)[C@@H]1C	MIC	-	-	-	-	H37Rv	-	0.09 µg/mL
NC1CCN(c2c(F)cc3c(=O)c(C(=O)O)cn(C4CC4)c3c2Cl)C1	MIC	-	-	-	-	ATCC 35828	-	0.125 µg/mL
CCCNC(=O)COc1cc2c(O)c3c(O)c(C)c4c(c13)C(=O)[C@@](C)(O/C=C/[C@H](OC)[C@@H](C)[C@@H](OC(C)=O)[C@H](C)[C@H](O)[C@H](C)[C@@H](O)[C@@H](C)/C=C/C=C(/C)C(=O)N2)O4	MIC	-	-	-	-	H37Rv	-	0.18 µg/mL
COc1ccc(-c2noc(C3=CC4(CCN(CC5CCCO5)CC4)c4ccccc43)n2)cc1	MIC	-	-	-	Spiroindene-resistant	TB377	turbidity	1.5 µM
Cc1ccc(N=Nc2c(O)c3ccc([N+](=O)[O-])cc3[nH]c2=O)cc1	inhibition	-	6.25 µg/mL	-	-	H37Rv	resazurin	92%
CCN(CC)N(C)C(=O)COc1cc2c(O)c3c(O)c(C)c4c(c13)C(=O)[C@@](C)(O/C=C/[C@H](OC)[C@@H](C)[C@@H](OC(C)=O)[C@H](C)[C@H](O)[C@H](C)[C@@H](O)[C@@H](C)/C=C/C=C(/C)C(=O)N2)O4	MIC	-	-	-	-	H37Rv	-	0.37 µg/mL
CCCCCCCCCN1C(=O)CC(Nc2ccc(N3CCCCC3)cc2)C1=O	MIC	-	-	-	-	Clinical isolate (isoniazid-resistant)	-	≤20 µg/mL
CN(C)c1ccc(C=O)c([N+](=O)[O-])c1	inhibition	-	12.5 µg/mL	-	-	H37Rv	BACTEC	0%
C[C@@H]1CN(c2c(F)c(N)c3c(=O)c(C(=O)O)cn(C4CC4)c3c2F)C[C@H](C)N1	MBC	-	-	-	-	ATCC 35826	-	0.06 µg/mL
CN(C)CCCN1c2ccccc2Sc2ccc(Cl)cc21	MIC	-	-	-	-	21 isolates (multidrug resistance)	-	4 µg/mL
CCc1cc(C(N)=S)ccn1	MIC	-	-	-	-	90-0233 (INH SM-RS)	-	0.25 µg/mL
NNC(=O)c1ccncc1	MIC	-	-	-	-	-	-	0.03 µg/mL
CCn1cc2c(=O)n3ncn(-c4ccc(Br)cc4)c3nc2n1	inhibition	-	6.25 µg/mL	-	-	H37Rv	resazurin	10%
C[C@@H]1CN(c2c(F)c(N)c3c(=O)c(C(=O)O)cn(C4CC4)c3c2F)C[C@H](C)N1	MIC	-	-	-	-	90-0201 (drug-susceptible)	-	0.1 µg/mL
CCOC(=O)CN1C(C(C)=O)=C(O)c2c(C)cc(C)nc2S1(=O)=O	EC50	-	-	-	-	H37Rv	-	>12.5 µg/mL
CCc1nc2ccc(Cl)cn2c1C(=O)NCc1ccc(N2CCC(c3ccc(OC(F)(F)F)cc3)CC2)cc1	MIC50	-	-	-	-	N0155	turbidity	0.0026 µM
CCCCCCCCN1C(=O)CC(C)(SCC(N)C(=O)O)C1=O	MIC	-	-	-	-	H37Ra	-	≤20 µg/mL
CCn1cc(C(=O)O)c(=O)c2cc(F)c(N3CCNCC3)cc21	MIC50	-	-	-	-	100 isolates	-	8 µg/mL
C[C@@H]1CN(c2c(F)c(N)c3c(=O)c(C(=O)O)cn(C4CC4)c3c2F)C[C@H](C)N1	Median MIC	-	-	-	-	H37Ra	-	0.039 µg/mL
Cc1occc1C(=S)Nc1ccc(Cl)c(/C=N/OC(C)C)c1	MIC	VERO	-	-	-	H37Rv	-	12.5 µg/mL
CN[C@@H]1[C@H](O[C@H]2[C@H](O[C@H]3[C@H](O)[C@@H](O)[C@H](N=C(N)N)[C@@H](O)[C@@H]3N=C(N)N)O[C@@H](C)[C@]2(O)C=O)O[C@@H](CO)[C@H](O)[C@H]1O	MIC	-	-	-	Drug-resistant	D-211	resazurin	0.5 µM
CC1(C)S[C@@H]2[C@H](NC(=O)[C@H](N)c3ccccc3)C(=O)N2[C@H]1C(=O)O	MIC90	-	-	-	-	-	-	>92 µM
O=C1N(CC2CO2)CCN1CC1CO1	MIC bound	-	-	-	-	H37Rv	BACTEC	>12.5 µg/mL
Cc1c(Cl)cccc1N=Nc1c(O)c2ccc([N+](=O)[O-])cc2[nH]c1=O	MIC	-	-	-	-	H37Rv	resazurin	<6.25 µg/mL
CO[C@H]1/C=C/O[C@@]2(C)Oc3c(C)c(O)c4c(O)c(c(/C=N/N5CCN(C6CCCC6)CC5)c(O)c4c3C2=O)NC(=O)/C(C)=C\C=C\[C@H](C)[C@H](O)[C@@H](C)[C@@H](O)[C@@H](C)[C@H](OC(C)=O)[C@@H]1C	MIC	-	-	-	-	13267	-	0.02 µg/mL
O=C(NNC(=S)NC1OC(CO)C(O)C(O)C1O)c1cccc(C(=O)NNC(=S)NC2OC(CO)C(O)C(O)C2O)n1	inhibition	-	12.5 µg/mL	-	-	H37Rv	BACTEC	19%
CO[C@H]1/C=C/O[C@@]2(C)Oc3c(C)c(O)c4c(O)c(c(/C=N/N5CCN(C)CC5)c(O)c4c3C2=O)NC(=O)/C(C)=C\C=C\[C@H](C)[C@H](O)[C@@H](C)[C@@H](O)[C@@H](C)[C@H](OC(C)=O)[C@@H]1C	MIC	-	-	-	-	TN3806	-	>32 µg/mL
N[C@@H]1CONC1=O	MIC	-	-	-	-	90-0241 (drug-susceptible)	-	75 µg/mL
Cn1c(=O)c(N=Nc2ccc(Cl)c(Cl)c2)c(O)c2ccccc21	MIC	-	-	-	-	H37Rv	resazurin	>6.25 µg/mL
Cc1ccccc1C1OC(=O)c2ccc3ccccc3c21	MIC bound	-	-	-	-	H37Rv	BACTEC	>12.5 µg/mL
CO[C@H]1/C=C/O[C@@]2(C)Oc3c(C)c(O)c4c(O)c(cc(OCC(=O)N5C(CO)CCC5CO)c4c3C2=O)NC(=O)/C(C)=C\C=C\[C@H](C)[C@H](O)[C@@H](C)[C@@H](O)[C@@H](C)[C@H](OC(C)=O)[C@@H]1C	MIC	-	-	-	-	H37Rv	-	0.18 µg/mL
CN1CCC(CN2c3ccccc3Sc3ccccc32)C1	MIC	-	-	-	-	-	-	5–15 µg/mL
Cc1cc(C)c2c(n1)S(=O)(=O)N/C(=C(/O)c1ccccc1)C2=O	inhibition	-	12.5 µg/mL	-	-	H37Rv	-	37%
Cl.Cl.Cl.Cl.O=C(Nc1cc(C(=O)Nc2ccc(C3=NCCN3)cc2)cc(C2=NCCN2)c1)c1ccc(C(=O)Nc2cc(C(=O)Nc3ccc(C4=NCCN4)cc3)cc(C3=NCCN3)c2)cc1	MIC bound	-	-	-	-	H37Rv	BACTEC	>12.5 µg/mL
NNC(=O)c1ccncc1	MIC	-	-	-	-	90-0201 (drug-susceptible)	-	0.04 µg/mL
COc1cccc2c1[n+]([O-])c1cccc(O)c1[n+]2[O-]	MIC	-	-	-	-	EMB-R	-	1.6 µg/mL
O=c1[nH]c2c(Cl)c(Cl)ccc2c(O)c1N=Nc1cccc(Cl)c1	MIC	-	-	-	-	H37Rv	resazurin	<6.25 µg/mL
Cc1ccc(-c2noc(C3=CC4(CCN(CC5CCCO5)CC4)c4ccccc43)n2)cn1	MIC	-	-	-	-	H37Rv	resazurin	1.6 µM
NCC[C@H](O)C(=O)N[C@@H]1C[C@H](N)[C@@H](O[C@H]2O[C@H](CN)[C@@H](O)[C@H](O)[C@H]2O)[C@H](O)[C@H]1O[C@H]1O[C@H](CO)[C@@H](O)[C@H](N)[C@H]1O	MIC	-	-	-	-	H37Rv	-	0.5 µg/mL
CCc1ccc([C@H]2C[C@@H](C(F)(F)F)n3ncc(C(=O)NCc4ccc(OC)cc4)c3N2)cc1	fold resistance	-	-	-	MmpL3: Ile292Thr	H37Rv	fluorescence	0.5
CC(=O)C1(C)C(=O)N(c2ccc(F)cc2)C(=O)N1c1ccc(F)cc1	inhibition	-	12.5 µg/mL	-	-	H37Rv	BACTEC	0%
CC[C@H]1OC(=O)[C@H](C)[C@@H](O[C@H]2C[C@@](C)(OC)[C@@H](O)[C@H](C)O2)[C@H](C)[C@@H](O[C@@H]2O[C@H](C)C[C@H](N(C)C)[C@H]2O)[C@](C)(OC)C[C@@H](C)C(=O)[C@H](C)[C@@H](O)[C@]1(C)O	MIC	-	-	-	-	90-0240 (drug-susceptible)	-	10 µg/mL
Cc1cc(-c2cc3c(cc2F)c(=O)c(C(=O)O)cn3C2CC2)cc(C)n1	MIC	-	-	-	-	1620-6	-	1 µg/mL
O=c1[nH]c2c([N+](=O)[O-])cccc2c(O)c1N=Nc1cccc([N+](=O)[O-])c1	inhibition	-	6.25 µg/mL	-	-	H37Rv	resazurin	60%
CCCCCCCCCN1C(=O)CC(SCCNC(=O)C2CCCC2)C1=O	MIC	-	-	-	-	H37Ra	-	≤20 µg/mL
O=C(CCCC(=O)N/N=C/c1c2ccccc2cc2ccccc12)N/N=C/c1c2ccccc2cc2ccccc12	inhibition	-	12.5 µg/mL	-	-	H37Rv	BACTEC	34%
Cc1cc(C)c2c(=O)n(CC(O)CN3CCc4ccccc4C3)sc2n1	inhibition	-	12.5 µg/mL	-	-	H37Rv	-	33%
CCCCN1C(=O)C=CC1=O	MIC	-	-	-	-	H37Rv	-	≤20 µg/mL
C1=C(c2nc(-c3cccnc3)no2)c2ccccc2C12CCN(CC1CCCO1)CC2	MIC	-	-	-	Spiroindene-resistant	TB333	turbidity	>25 µM
CSc1c(C)n([O-])c2cc(Cl)c(Cl)cc2[n+]1=O	MIC	-	-	-	-	H37Rv	resazurin	0.78 µg/mL
CCCCCCCCN1C(=O)C=C(C)C1=O	MIC	-	-	-	-	H37Rv	-	≤20 µg/mL